Results of unrelated studies side by side (data: NIAID ChemDB).

All rows: whole-cell or culture tests; organism: Herpes simplex virus 1

An empty or dashed field is not shown. Rows are shuffled and stem from different studies. ECn is the concentration giving n% inhibition of infection, replication or growth.

CCCCCCc1cn([C@@H]2OC3COP(=O)(O)OC3[C@H]2O)c(=O)nc1N ; endpoint: EC50 ; strain: McIntyre ; result: >400 µg/mL
c1ccc2nc3c(nc2c1)c1ccccc1n3Cc1nccs1 ; endpoint: EC50 ; strain: C42 ; cell line: RK-13 ; method: ELISA ; result: >30 µM
COc1ccc(/C=N/NC(=O)c2ccccc2S(=O)(=O)NC(C)C)cc1 ; endpoint: EC50 ; strain: KOS ; cell line: HEL ; method: cytopathic effect ; result: >100 µM
NC1=NCCN1CC(=O)O ; endpoint: EC50 ; strain: BW10168 (TK-) ; cell line: VERO ; method: cytopathic effect ; result: 4300 µM
COc1ccc(-c2[nH]c3nc4c(ncn4COCCO)c(=O)n3c2C)cc1 ; endpoint: EC50 ; strain: F ; cell line: HEL ; method: cytopathic effect ; result: 0.384 µg/mL
Cc1cn([C@H]2S[C@H](CO)[C@@H](O)[C@@H]2F)c(=O)[nH]c1=O ; endpoint: EC50 ; strain: VR ; method: cytopathic effect ; result: >27 µg/mL
Nc1nc(=S)c2[nH]c(-c3cscn3)nc2[nH]1 ; endpoint: EC50 ; cell line: VERO ; method: plaque count ; result: >100 µg/mL
Cc1cn([C@@H]2O[C@H](CO)[C@@H](O)[C@@H]2O)c(=O)[nH]c1=O ; endpoint: EC50 ; strain: 77 ; cell line: VERO ; method: plaque count ; result: 4.2 µM
CC(C1=NNC(=Nc2ccc(F)cc2)SC1)N1C(=O)c2ccccc2C1=O ; endpoint: EC50 ; strain: VR733 ; cell line: VERO ; method: cytopathic effect ; result: >37.03 µg/mL
Nc1nc(N)c(Br)c(OCCOCP(=O)(O)O)n1 ; endpoint: EC50 ; strain: KOS ; cell line: E6SM ; method: cytopathic effect ; result: 700 µM
CC(C1=NNC(=Nc2ccc([N+](=O)[O-])cc2)SC1)N1C(=O)c2ccccc2C1=O ; endpoint: EC50 ; strain: VR733 ; cell line: VERO ; method: cytopathic effect ; result: >111 µg/mL
O=Cc1cn([C@@H]2O[C@H](CO)[C@@H](O)[C@@H]2O)c(=O)[nH]c1=O ; endpoint: EC50 ; strain: V3 ; cell line: HELF ; method: plaque count ; result: >500 µM
CCCc1cn([C@@H]2O[C@H](COP(=O)(O)O)[C@@H](O)[C@H]2O)c(=O)nc1N ; endpoint: EC50 ; strain: McIntyre ; result: >400 µg/mL
Nc1nc2c(ncn2CC[C@@H](O)CO)c(=O)[nH]1 ; endpoint: EC50 ; strain: 7935-72 ; cell line: VERO ; method: plaque count ; result: 1 µM
CCc1cn([C@H]2C[C@H](O)[C@@H](CO)O2)c(N)nc1=O ; endpoint: EC50 ; strain: McIntyre ; cell line: PRK ; method: cytopathic effect ; result: >400 µg/mL
COC(c1cn([C@H]2C[C@H](O)[C@@H](CO)O2)c(=O)[nH]c1=O)C(Cl)I ; endpoint: EC50 ; strain: E-377 ; cell line: HFF ; method: cytopathic effect ; result: >107 µM
CC(C)CC(C1=NNC(=Nc2ccccc2)SC1)N1C(=O)c2ccccc2C1=O ; endpoint: EC50 ; strain: VR733 ; cell line: VERO ; method: cytopathic effect ; result: >111 µg/mL
Nc1nc2c(ncn2CCCCO)c(=O)[nH]1 ; endpoint: EC50 ; strain: C42 (acyclovir-resistant) ; cell line: VERO ; method: plaque count ; result: 150 µM
O=c1[nH]c(=O)n([C@H]2C[C@H](O)[C@@H](CO)O2)cc1/C=C/Br ; endpoint: EC50 ; strain: HU-10 ; cell line: HEL ; method: cytopathic effect ; result: 150 µM
Cc1cc2nc3c4ccccc4n(CCN(C)C)c3nc2cc1C ; endpoint: EC50 ; strain: C42 ; cell line: A549 ; method: ELISA ; result: 2.19 µM
O=c1c2ncn(COCCO)c2nc2[nH]c(-c3ccc(C(F)(F)F)cc3)cn12 ; endpoint: EC50 ; strain: TK- ; cell line: HEL ; method: cytopathic effect ; result: >16 µg/mL
Cn1c(=O)ccn(/C=C2/CC2(CO)CO)c1=O ; endpoint: EC50 ; cell line: BSC-1 ; method: ELISA ; result: 10 µM
Cc1ccc(S(=O)(=O)NNC(=O)c2ccccc2S(=O)(=O)NC(C)C)cc1 ; endpoint: EC50 ; mutations: TK-deficient acyclovir-resistant ; strain: KOS ; cell line: HEL ; method: cytopathic effect ; result: >100 µM
O=c1[nH]c(=O)n([C@H]2C[C@H](O)[C@@H](CO)O2)cc1C(O)C(Cl)I ; endpoint: EC50 ; strain: E-377 ; cell line: HFF ; method: cytopathic effect ; result: 6.9 µM
C=CCNC(=S)NNC(=O)c1cc(-c2cc(F)cc(F)c2)ccc1O ; endpoint: EC50 ; strain: KOS ; cell line: HELA/VERO/HEL ; method: cytopathic effect ; result: 9.6 µg/mL
Nc1cc(OC[C@H](CO)OCP(=O)(O)O)nc(N)n1 ; endpoint: EC50 ; strain: KOS ; cell line: E6SM ; method: cytopathic effect ; result: 4.8 µM
COC(c1cn([C@H]2C[C@H](O)[C@@H](CO)O2)c(=O)[nH]c1=O)C(I)I ; endpoint: EC50 ; strain: E-377 ; cell line: HFF ; method: cytopathic effect ; result: >93 µM
Cc1c(-c2ccc(F)cc2)[nH]c2nc3c(ncn3COCCO)c(=O)n12 ; endpoint: EC50 ; strain: KOS ; cell line: HEL ; method: cytopathic effect ; result: 0.384 µg/mL
O=c1[nH]cnc2c1cnn2Cc1cn(CCCCO)nn1 ; endpoint: EC50 ; strain: B2006 (TK-) ; cell line: E6SM ; result: >400 µg/mL
O=C(NCc1ccc(Cl)cc1)c1cn2c3c(cc(CN4CCOCC4)cc3c1=O)OC(c1cccnc1)C2 ; endpoint: EC50 ; strain: SC16 ; cell line: HFF ; method: plaque count ; result: 7.2 µM
Nc1nc2c(ncn2C[C@]2(CO)C[C@H]2CO)c(=O)[nH]1 ; endpoint: EC50 ; strain: KOS ; method: plaque count ; result: 0.023 µg/mL
Cc1cn([C@@H]2O[C@H](CO)[C@@H](O)[C@@H]2F)c(=O)[nH]c1=O ; endpoint: EC50 ; strain: 77 ; cell line: VERO ; method: plaque count ; result: 0.65 µM
Nc1nc2c(ncn2CCC(CO)CO)c(=O)[nH]1 ; endpoint: EC50 ; strain: 511 ; cell line: 3T6 ; method: plaque count ; result: 0.08 µg/mL
OCCCCn1cc(Cn2ncc3c(NCc4ccccc4)ncnc32)nn1 ; endpoint: EC50 ; strain: B2006 (TK-) ; cell line: E6SM ; result: >400 µg/mL
CCCCCCCC/C=C\CCCCCCCOCCCOP(=O)(O)CO[C@H](CO)Cn1cnc2c(N)ncnc21 ; endpoint: EC90 ; cell line: MRC-5 ; method: hybridisation ; result: 0.0025 µM
CCc1cn([C@H]2S[C@H](CO)[C@@H](O)[C@@H]2F)c(=O)[nH]c1=O ; endpoint: EC50 ; strain: VR ; method: cytopathic effect ; result: 1 µg/mL
Cn1cc(C(=O)NCc2ccc(Cl)cc2)c(=O)c2cc(CN3CCOCC3)ccc21 ; endpoint: EC50 ; strain: L6178033 ; cell line: HFF ; method: plaque count ; result: 3 µM
Cc1cn([C@@H]2O[C@H](CO)[C@@H](O)[C@@H]2O)c(=O)[nH]c1=O ; endpoint: EC50 ; strain: VR-3 ; cell line: HELF ; method: cytopathic effect ; result: 0.66 µg/mL
O=c1[nH]c(=O)n([C@@H]2O[C@H](CO)[C@@H](O)[C@@H]2O)cc1/C=C/Br ; endpoint: EC50 ; strain: 77 ; cell line: VERO ; method: plaque count ; result: 3.8 µM
COC(c1cn([C@H]2C[C@H](O)[C@@H](CO)O2)c(=O)[nH]c1=O)C(Br)I ; endpoint: EC50 ; strain: E-377 ; cell line: HFF ; method: cytopathic effect ; result: >100 µM
CSc1ncnc2c1cnn2Cc1cnnn1CCCCO ; endpoint: EC50 ; strain: B2006 (TK-) ; cell line: E6SM ; result: >400 µg/mL
Cc1cn([C@@H]2O[C@H](COP(=O)(O)O)[C@@H](O)[C@H]2O)c(=O)nc1N ; endpoint: EC50 ; strain: F ; result: >400 µg/mL
O=c1[nH]c(=O)n([C@H]2C[C@H](O)[C@@H](CO)O2)cc1/C=C/Br ; endpoint: EC50 ; strain: McIntyre ; cell line: Primary rabbit kidney cells ; method: cytopathic effect ; result: 0.02 µg/mL
COC(c1cn([C@H]2C[C@H](O)[C@@H](CO)O2)c(=O)[nH]c1=O)C(Cl)Br ; endpoint: EC50 ; strain: E-377 ; cell line: HFF ; method: cytopathic effect ; result: 3.7 µM
Nc1ncnc2c1ncn2[C@@H]1S[C@H](CO)[C@@H](O)[C@@H]1F ; endpoint: EC50 ; strain: VR ; method: cytopathic effect ; result: 3 µg/mL
Nc1nc2c(ncn2COC(CO)CO)c(=O)[nH]1 ; endpoint: EC50 ; strain: HU-3 ; cell line: HEL ; method: cytopathic effect ; result: 0.0028 µM
C/C(=N/NC(N)=S)c1ccc(NC(=O)CN2C(=O)c3ccccc3S2(=O)=O)cc1 ; endpoint: EC50 ; strain: KOS ; cell line: HEL ; method: cytopathic effect ; result: >100 µM
CC1(C)C=C2[C@H]3CC[C@@H]4[C@@]5(C)CCC(=O)C(C)(C)[C@@H]5CC[C@@]4(C)[C@]3(C)CC[C@@]2(C(=O)O)CC1 ; endpoint: EC50 ; strain: 7401H ; cell line: VERO ; method: plaque count ; result: 3.9 µg/mL
Nc1nc(=O)c(/C=C/Br)cn1[C@H]1C[C@H](O)[C@@H](CO)O1 ; endpoint: EC50 ; strain: VMW1837 (TK-) ; cell line: PRK ; method: cytopathic effect ; result: >400 µg/mL
O=Cc1cn([C@H]2C[C@H](O)[C@@H](CO)O2)c(=O)[nH]c1=O ; endpoint: EC50 ; strain: 77 ; cell line: HELF ; method: plaque count ; result: 80 µM
Cc1cn([C@@H]2O[C@H](CO)[C@H]2CO)c(=O)[nH]c1=O ; endpoint: EC50 ; strain: 123 ; cell line: HFF ; method: plaque count ; result: 0.012 µg/mL
CCCCCCCC/C=C/CCCCCCCC(=O)OCC(CO)OCn1cnc2c(=O)[nH]c(N)nc21 ; endpoint: EC50 ; strain: HU-3 ; cell line: HEL ; method: cytopathic effect ; result: 0.0002 µM
CC(C1=NNC(=Nc2ccccc2F)SC1)N1C(=O)c2ccccc2C1=O ; endpoint: EC50 ; strain: VR733 ; cell line: VERO ; method: cytopathic effect ; result: >12.34 µg/mL
Nc1nc2c(ncn2COCCO)c(=O)[nH]1 ; endpoint: EC50 ; strain: SC16 ; cell line: MRC-5 ; method: plaque count ; result: 0.6 µg/mL
Nc1ncnc2c1ncn2[C@@H]1C[C@H](NC=O)[C@@H](O)[C@H]1O ; endpoint: EC50 ; cell line: HFF ; result: >100 µg/mL
CCCCc1cn([C@@H]2OC3COP(=O)(O)OC3[C@H]2O)c(=O)nc1N ; endpoint: EC50 ; strain: F ; result: >400 µg/mL
Cc1cn([C@@H]2S[C@H](CO)[C@@H](O)[C@@H]2F)c(=O)[nH]c1=O ; endpoint: EC50 ; strain: VR ; method: cytopathic effect ; result: 0.32 µg/mL
C=C(C)[C@@H]1CC[C@]2(CO)CC[C@]3(C)[C@H](CC[C@@H]4[C@@]5(C)CC[C@H](O)C(C)(C)[C@@H]5CC[C@]43C)[C@@H]12 ; endpoint: EC50 ; strain: F ; cell line: VERO ; method: plaque count ; result: 0.4 µg/mL
CC(C1=NN=C(N(C)c2ccccc2)SC1)N1C(=O)c2ccccc2C1=O ; endpoint: EC50 ; strain: VR733 ; cell line: VERO ; method: cytopathic effect ; result: >111 µg/mL
Nc1nc2c(ncn2COCCO)c(=O)[nH]1 ; endpoint: EC50 ; strain: 15616SC16 (acyclovir-susceptible) ; cell line: HFF ; method: cytopathic effect ; result: 0.5 µg/mL
O=c1c2ncn(COCCO)c2nc2[nH]c(-c3ccccc3)c(Cc3ccc(F)cc3)n12 ; endpoint: EC50 ; strain: KOS ; cell line: HEL ; method: cytopathic effect ; result: >16 µg/mL
Cc1cn([C@H]2CC[C@@H](CO)O2)c(=S)[nH]c1=O ; endpoint: EC50 ; strain: Hangal ; result: 0.21 µg/mL
Nc1ncnc2c1cnn2Cc1cn(CCCCO)nn1 ; endpoint: EC50 ; strain: KOS ; cell line: E6SM ; result: >400 µg/mL
C=Cc1cn([C@@H]2O[C@H](CO)[C@@H](O)[C@@H]2O)c(=O)[nH]c1=O ; endpoint: EC50 ; strain: 77 ; cell line: VERO ; method: plaque count ; result: 3.2 µM
CC(C1=NNC(=Nc2ccccc2)SC1)N1C(=O)c2ccc(Br)cc2C1=O ; endpoint: EC50 ; strain: VR733 ; cell line: VERO ; method: cytopathic effect ; result: >111 µg/mL
CSc1nnc(-c2ccccc2S(=O)(=O)NC(C)C)o1 ; endpoint: EC50 ; strain: KOS ; cell line: HEL ; method: cytopathic effect ; result: >100 µM
Cc1ccc(NC(=S)NNC(=O)c2cc(-c3cc(F)cc(F)c3)ccc2O)cc1 ; endpoint: EC50 ; strain: KOS ; cell line: HELA/VERO/HEL ; method: cytopathic effect ; result: 0.064 µg/mL
CC(C)c1cn([C@@H]2OC3COP(=O)(O)OC3[C@H]2O)c(=O)nc1N ; endpoint: EC50 ; strain: KOS ; result: >400 µg/mL
CC(C)NS(=O)(=O)c1ccccc1C(=O)NNC(=O)c1ccc(Cl)cc1 ; endpoint: EC50 ; strain: KOS ; cell line: HEL ; method: cytopathic effect ; result: >100 µM

6 of the rows above, restated:

SMILES,endpoint,mutations,strain,cell line,method,result
CC(C1=NN=C(N(C)c2ccccc2)SC1)N1C(=O)c2ccccc2C1=O,EC50,-,VR733,VERO,cytopathic effect,>111 µg/mL
O=c1[nH]c(=O)n([C@@H]2O[C@H](CO)[C@@H](O)[C@@H]2O)cc1/C=C/Br,EC50,-,77,VERO,plaque count,3.8 µM
Cc1cn([C@H]2CC[C@@H](CO)O2)c(=S)[nH]c1=O,EC50,-,Hangal,-,-,0.21 µg/mL
Cc1ccc(NC(=S)NNC(=O)c2cc(-c3cc(F)cc(F)c3)ccc2O)cc1,EC50,-,KOS,HELA/VERO/HEL,cytopathic effect,0.064 µg/mL
COC(c1cn([C@H]2C[C@H](O)[C@@H](CO)O2)c(=O)[nH]c1=O)C(Cl)Br,EC50,-,E-377,HFF,cytopathic effect,3.7 µM
Cc1c(-c2ccc(F)cc2)[nH]c2nc3c(ncn3COCCO)c(=O)n12,EC50,-,KOS,HEL,cytopathic effect,0.384 µg/mL